Anti-infective test results gathered from many reports (values: NIAID ChemDB through PubChem).

Shared fields: growth or infection tests; agent: Candida albicans

Conditions beyond the fields shown may differ between rows.

| smiles | endpoint | read by | strain | value |
|---|---|---|---|---|
| CCC(C)n1ncn(-c2ccc(N3CCN(c4ccc(OC[C@H]5CO[C@](Cn6cncn6)(c6ccc(Cl)cc6Cl)O5)cc4)CC3)cc2)c1=O | MIC | - | Isogenic isolate 5 MDR1 (25X) | 0.03 µg/mL |
| CCCCCCCCNC1CCc2cccc(OC)c2C1 | MIC | - | - | 1 µM |
| N[C@H]1COC[C@H]1C(=O)O | EC50 | - | - | 64 µg/mL |
| CC(C)(C)n1[se]c2ncccc2c1=O | MIC | - | - | >500 µg/mL |
| N[C@H]1CCC[C@H]1P(=O)(O)O | EC50 | - | - | >256 µg/mL |
| C[C@@H]1[C@H](O)[C@@H](C)/C=C/C=C/CC/C=C/C=C/C=C/C=C/C(O[C@H]2O[C@H](C)[C@@H](O)[C@H](N)[C@@H]2O)CC2O[C@](O)(CC(O)C(O)CCC(O)CC(O)CC(O)CC(=O)O[C@H]1C)CC(O)C2C(=O)O | MIC | agar | ATCC 24433 | 1.56 µg/mL |
| C[C@H]1[C@H](O)[C@@H](C)/C=C/C=C/C=C/C=C/C=C/C=C/C=C/[C@H](O[C@@H]2O[C@H](C)[C@@H](O)[C@H](N)[C@@H]2O)C[C@@H]2O[C@](O)(C[C@@H](O)C[C@@H](O)CC[C@H](O)[C@@H](O)C[C@@H](O)CC(=O)O[C@H]1C)C[C@H](O)[C@H]2C(=O)O | MIC | broth dilution | - | 4.6 µM |
| CCCCCCCCCCCCCCNC1CCc2ccc(OC)cc2C1 | MIC | - | - | 32 µM |
| S=C=NCc1ccccc1 | MIC | broth dilution | - | 30 µg/mL |
| O=S(=O)(O)c1cc(N=C=S)ccc1/C=C/c1ccc(N=C=S)cc1S(=O)(=O)O | MIC80 | turbidity | SC5314 | >99.7 µg/mL |
| Cc1cccc(N(C)C(=S)Oc2ccc3ccccc3c2)c1 | MIC | - | 57 strains | >100 µg/mL |
| O=c1[nH][se]c2ncccc12 | MIC | - | - | 128 µg/mL |
| O=S(Cc1ccccc1)SCCO | MIC | - | - | 16 µg/mL |
| O=C/C=C/c1ccccc1 | MIC | - | STD no 41 | 300 µg/mL |
| CCCCCCCCNC1CCc2ccc(OC)cc2C1 | MIC | - | - | 0.0625 µM |
| N[C@H]1CCCC[C@H]1C(=O)O | EC50 | - | - | 128 µg/mL |
| CC(=O)c1cn(Cc2nnn(Cc3nnc(SC4OC(O)C(O)C(O)C4O)n3-c3ccc(Cl)cc3)n2)c2ccccc12 | MIC99 | agar | - | 110 µg/mL |
| CC(C/C=C/C=C/CC/C=C\C=C\CCC(C)(C)C)C(O)C(O)C(O)C(O)C(O)C1OC(=O)C(O)C1O | MIC | - | IAM4888 | 6.3 µg/mL |
| O=c1c2ccccc2[se]n1-c1ccccn1 | MIC | - | - | >500 µg/mL |
| O=S(CCO)SCCO | MIC | - | - | >512 µg/mL |
| Cc1c(N)nc([C@H](CC(N)=O)NC[C@H](N)C(N)=O)nc1C(=O)N[C@H](C(=O)N[C@H](C)[C@@H](O)[C@H](C)C(=O)N[C@H](C(=O)NCCc1nc(-c2nc(C(=O)NCCC[S+](C)C)cs2)cs1)[C@@H](C)O)C(O[C@@H]1O[C@@H](CO)[C@@H](O)[C@H](O)[C@@H]1O[C@H]1O[C@H](CO)[C@@H](O)[C@H](OC(N)=O)[C@@H]1O)c1cnc[nH]1 | MLC | - | Isolate 94-77 | 50 µg/mL |
| C=C1C[C@H](N)[C@@H]1C(=O)O | EC50 | - | - | >256 µg/mL |
| CCCCCCCCNC1CCc2ccc(O)cc2C1 | MIC | - | - | 0.0625 µM |
| COC(=O)C1=CC[C@@]23CC[C@@H]([C@@](C)(/C=C/C=C(\C)C(=O)O)OC2=O)[C@@]3(O)CC1 | MIC | - | Isolate B311 | 3.12 µg/mL |
| CC(C)C1=C[C@H]2C[C@]3(C=O)[C@@H]4CC[C@@H](C)[C@H]4C[C@@]2(CO[C@H]2C[C@@H]4OC(C)(C)O[C@@H]4[C@@H](C)O2)[C@]13C(=O)O | MIC | - | 4711E | 0.015 µg/mL |
| COc1ccc(CSC#N)cc1 | MIC | broth dilution | - | 600 µg/mL |
| COC(=O)[C@H]1[C@@H]2C[C@@H](O[C@@H]3O[C@H](C)[C@@H](O)[C@H](N)[C@@H]3O)/C=C/C=C/C=C/C=C/C=C/C=C/C=C/[C@H](C)[C@@H](O)[C@H](C)[C@H](C)OC(=O)C[C@H](O)C[C@H](O)[C@@H](O)CC[C@H](O)C[C@H](O)C[C@](O)(C[C@@H]1O)O2 | MIC | - | Clinical isolates | 0.5 µg/mL |
| COc1cc(O)c2c(c1)C(=O)c1c(cc3c(c1O)-c1c(cc(C)c(C(=O)N[C@H](CO)C(=O)O)c1O)[C@H](O[C@@H]1O[C@H](C)[C@H](O)[C@H](O)[C@H]1O)[C@H]3O)C2=O | MIC | - | Juntendo 83-2-14 | 1.6 µg/mL |
| O=c1c2cccnc2[se]n1N(c1ccccc1)c1ccccc1 | MIC | - | - | >500 µg/mL |
| CC(=O)c1cn(Cc2nnn(CC(=O)NN)n2)c2ccccc12 | MIC99 | agar | - | 110 µg/mL |
| CCCCCSc1nc2ccc(N)cc2s1 | EC50 | - | IEM 49/64 | <80 µM |
| N[C@@H](CS(=O)Cc1ccccc1)C(=O)O | MIC | - | - | 256 µg/mL |
| CC(C)=CCC/C(C)=C/CC/C(C)=C/CC[C@@]1(C)[C@H](CCCO)/C(=C(/C)C=O)CC[C@]1(C)O | MIC | - | 127 | >50 µg/mL |
| CC(=O)O[C@@H]1C[C@]2(C)C3=C(CC[C@H]2C(C)(C)[C@H]1O[C@@H]1C[C@H](CO)[C@@H](O)[C@H](O)[C@H]1O)[C@@]1(C)CC[C@](C)([C@H](C)C(C)C)[C@@H](C(=O)O)[C@]1(C)CC3 | MIC | - | FP633 | 1.6 µg/mL |
| N[C@H]1CSC[C@H]1C(=O)O | EC50 | - | - | 32 µg/mL |
| OCCSSCc1ccccc1 | MIC | - | - | 128 µg/mL |
| COc1ccc(CN=C=S)cc1 | MIC | broth dilution | - | 1 µg/mL |
| C=C(Cl)CN1C[C@H](OCC23C[C@@H]4[C@H](C)CC[C@H]4C4(C=O)CC2C=C(C(C)C)C34C(=O)O)O[C@H](C)C1 | MIC50 | - | 22 isolates | 0.03 µg/mL |
| C=C1CC(N)[C@H](c2nn[nH]n2)C1 | EC50 | - | - | 128 µg/mL |
| O=c1c2ccccc2[se]n1-c1cccnc1 | MIC | - | - | >500 µg/mL |
| c1ccc(CSCc2ccccc2)cc1 | MIC | - | - | 128 µg/mL |
| COc1cccc2c1CC(NCc1ccccc1)CC2 | MIC | - | - | 64 µM |
| C=C1C[C@H](N)[C@H](C(=O)O)C1C | EC50 | - | - | 128 µg/mL |
| C[C@@H]1[C@H](O)[C@@H](C)/C=C/C=C/CC/C=C/C=C/C=C/C=C/C(O[C@H]2O[C@H](C)[C@@H](O)[C@H](N)[C@@H]2O)CC2O[C@](O)(CC(O)C(O)CCC(O)CC(O)CC(O)CC(=O)O[C@H]1C)CC(O)C2C(=O)O | MIC | broth dilution | ATCC 10231 | 0.25 µg/mL |
| C=C(C)[C@@H]1CC[C@]2(COC(=O)COc3cc(C(C)C)ccc3C)CC[C@]3(C)C(CCC4[C@@]5(C)CC[C@H](O)C(C)(C)C5CC[C@]43C)C12 | MIC90 | broth dilution | ATCC 90028 | 31.4 µg/mL |
| c1cc2c[n+](c1)CCCCCCCCCCCCCCc1ccc[n+](c1)CCCCCCCCCCCCC2 | MIC | - | ATCC 10231 | 0.7 µg/mL |
| O=c1cc(-c2ccccc2)oc2cc(O)c(O)c(O)c12 | MIC | - | ATCC64550 | 26 µg/mL |
| c1cc2c[n+](c1)CCCCCCCCCCCCCCc1ccc[n+](c1)CCCCCCCCCCCCCC2 | MIC | - | ATCC 10231 | 0.7 µg/mL |
| CCCCCCCCCCNC1CCc2cccc(O)c2C1 | MIC | - | - | 1 µM |

Repeating the first 7 entries:

smiles	endpoint	read by	strain	value
CCC(C)n1ncn(-c2ccc(N3CCN(c4ccc(OC[C@H]5CO[C@](Cn6cncn6)(c6ccc(Cl)cc6Cl)O5)cc4)CC3)cc2)c1=O	MIC	-	Isogenic isolate 5 MDR1 (25X)	0.03 µg/mL
CCCCCCCCNC1CCc2cccc(OC)c2C1	MIC	-	-	1 µM
N[C@H]1COC[C@H]1C(=O)O	EC50	-	-	64 µg/mL
CC(C)(C)n1[se]c2ncccc2c1=O	MIC	-	-	>500 µg/mL
N[C@H]1CCC[C@H]1P(=O)(O)O	EC50	-	-	>256 µg/mL
C[C@@H]1[C@H](O)[C@@H](C)/C=C/C=C/CC/C=C/C=C/C=C/C=C/C(O[C@H]2O[C@H](C)[C@@H](O)[C@H](N)[C@@H]2O)CC2O[C@](O)(CC(O)C(O)CCC(O)CC(O)CC(O)CC(=O)O[C@H]1C)CC(O)C2C(=O)O	MIC	agar	ATCC 24433	1.56 µg/mL
C[C@H]1[C@H](O)[C@@H](C)/C=C/C=C/C=C/C=C/C=C/C=C/C=C/[C@H](O[C@@H]2O[C@H](C)[C@@H](O)[C@H](N)[C@@H]2O)C[C@@H]2O[C@](O)(C[C@@H](O)C[C@@H](O)CC[C@H](O)[C@@H](O)C[C@@H](O)CC(=O)O[C@H]1C)C[C@H](O)[C@H]2C(=O)O	MIC	broth dilution	-	4.6 µM

ECn: concentration that inhibits the pathogen or its effect by n%. Blank or dashed fields: not listed here. A number after MIC or MFC names an inhibition level or a share of isolates.